In this assay the test system is children with confirmed ASD diagnoses. The assay is described as follows: Outcome of therapies received prior to the subject treatment, as reported by parents. It is filed as in vivo, human. The following applies: patient one, given together.

For the substance “Viferon: drug the child was treated by, with Valtrex, prior to the treatment”, the “result of prior treatment by Valtrex and Viferon” value is “they are getting sick more rarely, learned to swim and to communicate through PECS cards”.

For the origin of these results see patent US20210128567A1, “Compositions and Methods for Cognitive, Immune and Digestive Support in Patients with Autism Spectrum Disorder” (FLAASK, LLC, priority 2017, published 2021).
